Measured values from several laboratories, pooled; numbers as filed in NIAID ChemDB.

Common to all: growth or infection tests; species: HIV-1; endpoint: EC50

An empty or dashed field is not shown.

| compound | strain or isolate | mutations | cell line | read by | conditions | result |
|---|---|---|---|---|---|---|
| COc1c(O)c(Cl)c2c(c1OC)-c1c(c(Cl)c(O)c(OC)c1OC)C[C@H](C)[C@H](C)C2 | IIIB |  | SupT1 + Sup-T1 | syncytia |  | 1.52 µM |
| Cc1cn([C@H]2C=C[C@@H](CO)O2)c(=O)[nH]c1=O |  |  | CEM + CEM TK- |  |  | 14 µM |
| COc1cc2c(OC(C)=O)c3c(c(-c4ccc5c(c4)OCO5)c2cc1OC)C(=O)OC3 | NL4-3 |  | 293T | luciferase | pseudotyped | >3.4 µM |
| CCOc1ccc(Cc2[nH+]c(C)cc3cc(OCC)c(OCC)cc23)cc1OCC | IIIB |  | H9 | p24 |  | 82.8 µg/mL |
| CCCCCCCCCC(=O)O[C@@]12[C@H](OC(C)=O)[C@@H](C)[C@@]3(O)[C@@H](C=C(CO)C[C@]4(O)C(=O)C(C)=C[C@@H]34)[C@@H]1C2(C)C | IIIB |  | MT-4 + mouse plasma + MT-4 | cytopathic effect / MTT |  | <0.1 µg/mL |
| CCCCCCCCCCCCCCCCCOP(=O)(OC[C@H]1O[C@@H](O)[C@@H](O)[C@@H](O)[C@@H]1O)OC[C@H]1O[C@@H](n2cc(C)c(=O)[nH]c2=O)C[C@@H]1N=[N+]=[N-] | BRU |  | CEM-C113 + CEM/C113 | cytopathic effect / MTT | 22 d | 0.4 µM |
| OC[C@@H]1[C@@H](O)[C@H](O)[C@@H](O)CN1C/C=C/c1ccccc1 | IIIB |  | MOLT-4 | cell fusion |  | <2 µg/mL |
| CCCC1NCCc2cc(O)c(O)cc21 | IIIB |  | H9 | p24 |  | 2.88 µg/mL |
| [N-]=[N+]=N[C@H]1C[C@H](n2cc(Br)c(=O)[nH]c2=O)O[C@@H]1CO |  |  | CEM-F + CEM | p24 |  | 8.73 µM |
| Cc1cn([C@H]2C[C@H](N=[N+]=[N-])[C@@H](CO)O2)c(=O)[nH]c1=O | NL4-3 |  | CEM-GFP | p24 / ELISA |  | 0.000158 µM |
| Cc1cn([C@H]2C[C@H](N=[N+]=[N-])[C@@H](COP(=O)(O)OC[C@H]3OC(O)[C@H](O)[C@@H](O)[C@@H]3O)O2)c(=O)[nH]c1=O | LAV-Bru |  | U-937 | RT activity | 14 d | >25 µM |
| COc1ccc(S(=O)(=O)N(CC(C)C)C[C@@H](O)[C@H](Cc2ccc(OCP(=O)(O)O)cc2)NC(=O)O[C@H]2CO[C@H]3OCC[C@H]32)cc1 | IIIB |  | MT-2 + MT-4 |  |  | >50 µM |
| Cc1cc(S(N)(=O)=O)ccc1NC(=O)COc1ccc(Cl)cc1C(=O)c1cc(Cl)cc(C#N)c1 | NNRTI-resistant (RT G190E) | RT-G190E | MAGI | β-galactosidase |  | 0.0007 µM |
| Cc1cn([C@H]2C=C[C@@H](COP(=O)(OCc3ccccc3)OCc3ccccc3)O2)c(=O)[nH]c1=O |  |  | CEM + CEM TK- |  |  | 5.5 µM |
| Cc1cn([C@H]2C[C@H](N=[N+]=[N-])[C@@H](CO)O2)c(=O)[nH]c1=O | TRO.11 |  | TZM-bl | p24 / ELISA |  | 0.06092 µM |
| Cc1cn([C@H]2C=C[C@@H](COP(=O)(O)O)O2)c(=O)[nH]c1=O |  |  | CEM + CEM TK- | cytopathic effect |  | 24 µM |
| O=Nc1c(-c2c(O)[nH]c3ccccc23)[nH]c2ccccc12 | SF162 |  | MDM | RT activity | 28 d | <1 µM |
| Cc1cn([C@H]2C[C@H](N=[N+]=[N-])[C@@H](CO)O2)c(=O)[nH]c1=O |  |  | CEM-F + CEM | p24 |  | 0.1 µM |
| O=C1N(Cc2ccc(CO)cc2)[C@H](COc2ccccc2)[C@H](O)[C@@H](O)[C@@H](COc2ccccc2)N1Cc1ccc(CO)cc1 | IIIB | PR-I84V | MT-4 | cytopathic effect / XTT |  | 0.95 µM |
| Cc1cn([C@H]2C[C@H](N=[N+]=[N-])[C@@H](COP(=O)(O)OC[C@H]3O[C@@H](OCCO)[C@@H](O)[C@@H](O)[C@@H]3O)O2)c(=O)[nH]c1=O | BRU |  | CEM-C113 + CEM/C113 | cytopathic effect / MTT | 22 d | 0.6 µM |
| Cc1cn([C@H]2C[C@H](N=[N+]=[N-])[C@@H](CO)O2)c(=O)[nH]c1=O | A018 |  | MT-4 | cytopathic effect / trypan blue |  | 0.14 µM |
| COc1cc2c(OC3O[C@H](C)[C@@H](O)[C@H](OC(=O)C4CC4)[C@H]3O)c3c(c(-c4ccc5c(c4)OCO5)c2cc1OC)C(=O)OC3 | NL4-3 |  | 293T | luciferase | pseudotyped | >0.0267 µM |
| COC1N(N(C)C)C(=O)c2c(O)c(=O)c(C(=O)NCc3ccc(F)cc3F)cn2C12COC2 | NL4-3 |  | MT4-GFP | GFP | 0% human serum | 0.004 µM |
| Cc1ccc(-c2ccc3c(c2)C=C(C(=O)Nc2ccc(C[N+](C)(C)C4CCOCC4)cc2)CCC3)cc1 | IIIB |  | MAGI + MAGI-CCR5 | β-galactosidase |  | >20 µM |
| CCCOc1cc2cc[n+](C)c(CC)c2cc1OCCC | IIIB |  | H9 | p24 |  | 4.98 µg/mL |
| COc1ccc2c(c1)COP(=O)(OC[C@@H]1C=C[C@H](n3cnc4c(N)ncnc43)O1)O2 |  |  | CEM + CEM/0 |  |  | 0.06 µM |
| CC(=O)N1CCC(C(=O)N(CCCN2CCC(Cc3ccc(C(N)=O)cc3)CC2)c2ccc(C)c(Cl)c2)CC1 | R5 subtype E_3 recombinant |  | U87 (CD4+ CCR5+) + U87 | luciferase |  | 0.0064 µM |
| C=CCOC(=O)O[C@@H]1COC(Oc2c3c(c(-c4ccc5c(c4)OCO5)c4cc(OC)c(OC)cc24)C(=O)OC3)[C@H](O)[C@H]1OC(C)=O | NL4-3 |  | 293T | luciferase | pseudotyped | >0.5127 µM |
| O=C(Nc1nc2c(Cl)cccc2s1)c1ccc([N+](=O)[O-])s1 | NL4-3 |  | CEM-GXR | flow cytometry | pseudotyped | 0.55 µM |
| COc1cc(/C=C/c2ccc3ccc(C(=O)O)c(O)c3n2)cc(O)c1O | NL4-3 |  | HeLa P4 + HeLa | β-galactosidase |  | 1 µM |
| CC(=O)O[C@@H]1[C@H](OC(=O)CC(C)C)c2c(ccc3ccc(=O)oc23)OC1(C)C |  |  | Monocytes | p24 | 18 d | <20 µg/mL |
| C=CCOC(=O)O[C@@H]1COC(Oc2c3c(c(-c4ccc5c(c4)OCO5)c4cc(OC)c(OC)cc24)C(=O)OC3)[C@H](OC(=O)OCC=C)[C@H]1O | NL4-3 |  | 293T | luciferase | pseudotyped | >0.4383 µM |
| Cc1cn([C@H]2C[C@H](N=[N+]=[N-])[C@@H](CO)O2)c(=O)[nH]c1=O | LAV-Bru |  | U-937 | RT activity | 14 d | >25 µM |
| COc1cc(Cc2c3cc(OC)c(OC)cc3cc(C)[n+]2C)c(C(C)=O)cc1OC | IIIB |  | H9 | p24 |  | >20.6 µg/mL |
| CC(C)OC(=O)OCOP(=O)(CO[C@H](C)Cn1cnc2c(N)ncnc21)OCOC(=O)OC(C)C | NL4-3 | A502V | TZM-gfp | GFP |  | 0.12 µM |
| Cc1cn([C@H]2C[C@H](N=[N+]=[N-])[C@@H](CO)O2)c(=O)[nH]c1=O |  |  | CEM + CEM TK- |  |  | >100 µM |
| COc1ccc(Cc2c3ccc(OC)c(OC)c3cc[n+]2C)cc1OC | IIIB |  | H9 | p24 |  | >100 µg/mL |
| CCC[C@@H](c1ccc(C(F)(F)F)cc1)N1CCN(C2(C)CCN(C(=O)c3c(C)ncnc3C)CC2)C[C@@H]1C | YU-2 Clinical isolates |  | U-80 |  |  | 0.00035 µM |
| CCc1c(Sc2ccccn2)n(COCc2ccccc2)c(=O)[nH]c1=O |  |  | T4 | XTT |  | 0.0009 µM |
| Nc1ccn([C@H]2CC[C@@H](CO)O2)c(=O)n1 |  |  | PBM | p24 / ELISA / antigen |  | 0.0028 µM |
| COc1cc2c(OC3O[C@H](CO)[C@H]4OC(C)(C)O[C@@H]4[C@H]3O)c3c(c(-c4ccc5c(c4)OCO5)c2cc1OC)C(=O)OC3 | NL4-3 |  | 293T | luciferase | pseudotyped | >0.0527 µM |
| O=c1c2ccccc2n2nnc3ccc(NCCCN4CCN(CCCNc5ccc6nnn7c8ccccc8c(=O)c5c67)CC4)c1c32 | CLADE B |  | PBL | p24 |  | 0.0056 µM |
| Cc1ccnc2c1NC(=O)c1cccnc1N2C1CC1 | NL4-3 | V108I | C8166 | antigen |  | 0.433 µM |
| O=S1(c2ccccc2)=NC(=S)Nc2ccccc21 | RF |  | CEMx174 + CEM | cytopathic effect / XTT |  | 3.28 µM |
| Cc1cn2c(nc1=O)OC[C@@H]1CC[C@H]2O1 |  |  | CEM-F + CEM | p24 |  | 48 µM |

The last 5 rows once more:

compound,strain or isolate,mutations,cell line,read by,conditions,result
COc1cc2c(OC3O[C@H](CO)[C@H]4OC(C)(C)O[C@@H]4[C@H]3O)c3c(c(-c4ccc5c(c4)OCO5)c2cc1OC)C(=O)OC3,NL4-3,,293T,luciferase,pseudotyped,>0.0527 µM
O=c1c2ccccc2n2nnc3ccc(NCCCN4CCN(CCCNc5ccc6nnn7c8ccccc8c(=O)c5c67)CC4)c1c32,CLADE B,,PBL,p24,,0.0056 µM
Cc1ccnc2c1NC(=O)c1cccnc1N2C1CC1,NL4-3,V108I,C8166,antigen,,0.433 µM
O=S1(c2ccccc2)=NC(=S)Nc2ccccc21,RF,,CEMx174 + CEM,cytopathic effect / XTT,,3.28 µM
Cc1cn2c(nc1=O)OC[C@@H]1CC[C@H]2O1,,,CEM-F + CEM,p24,,48 µM

ECn: concentration that inhibits the pathogen or its effect by n%. Neighbouring rows are from separate reports.